Compound potency records, mixed from different reports. Data source: NIAID ChemDB in PubChem.

Shared fields: growth or infection tests; organism: Mycobacterium avium complex

Rows are shuffled and stem from different studies. A number after MIC or MFC names an inhibition level or a share of isolates. a–b is a range or a potency band.

SMILES,strain,read-out,value
NNC(=O)c1ccncc1,13025,MIC,0.32–0.4 µg/mL
CCCCCCCCCCCCO/N=C1\[C@H](C)CC(C)(O)[C@H](O[C@@H]2O[C@H](C)C[C@H](N(C)C)[C@H]2O)[C@@H](C)[C@H](O[C@H]2C[C@@](C)(OC)[C@@H](OC(C)=O)[C@H](C)O2)[C@@H](C)C(=O)O[C@H](CC)[C@@](C)(O)[C@H](O)[C@H]1C,20092 (clarithromycin-resistant),MIC,6.25 µg/mL
C[C@@H]1CN(c2c(F)c(N)c3c(=O)c(C(=O)O)cn(C4CC4)c3c2F)C[C@H](C)N1,N-962 (HIV+),MIC,1 µg/mL
CC(C)N=C(N)/N=C(\N)NOCCCOc1cc(Cl)c(Cl)cc1Cl,1960,MIC,32 µg/mL
CO[C@H]1/C=C/O[C@@]2(C)Oc3c(C)c(O)c4c(=O)c(c5oc6cc(N7CCN(CC(C)C)CC7)cc(=O)c6nc5c4c3=C2O)NC(=O)/C(C)=C\C=C\[C@H](C)[C@H](O)[C@@H](C)[C@@H](O)[C@@H](C)[C@H](OC(C)=O)[C@@H]1C,N-259 (HIV-),MIC,0.05 µg/mL
Cc1c(CNc2ccccc2Cl)cnc2nc(N)nc(N)c12,NJ168,MIC,≤0.13 µg/mL
CCN=c1cc2n(-c3ccc(Cl)cc3)c3ccccc3nc-2cc1Nc1ccc(Cl)cc1,453,MBC,64 µg/mL
CCOc1ccc(OCC)c(N(C)Cc2cnc3nc(N)nc(N)c3c2C)c1,NJ211,MIC,≤0.13 µg/mL
Nc1ccc(S(=O)(=O)c2ccc(N)cc2)cc1,DW19,MIC,32 µg/mL
CC[C@H]1OC(=O)[C@H](C)[C@@H](OC2C[C@@](C)(OC)[C@@H](O)[C@H](C)O2)[C@H](C)[C@@H](O[C@@H]2O[C@H](C)C[C@H](N(C)C)[C@H]2O)C(C)(O)C[C@@H](C)/C(=N\OCCCC2CCCCC2)[C@H](C)[C@@H](O)[C@]1(C)O,20092 (clarithromycin-resistant),MIC,12.5 µg/mL
CC1(C)N=C(N)N=C(N)N1OCCCOc1cc(Cl)c(Cl)cc1Cl,DW11,MIC,2 µg/mL
Cc1c(CNc2cccc3cnccc23)cnc2nc(N)nc(N)c12,NJ168,MIC,≤0.13 µg/mL
CN1CCN(CCCN=c2cc3n(-c4ccc(Cl)cc4)c4ccccc4nc-3cc2Nc2ccccc2)CC1,10 strains (HIV+),MIC90,0.87 µg/mL
CCCCCCCCCCC(=O)O[C@H]1[C@H](C)OC(O[C@H]2[C@H](C)[C@@H](O[C@@H]3O[C@H](C)C[C@H](N(C)C)[C@H]3O)C(C)(O)C[C@@H](C)/C(=N\OCCCOc3ccccc3)[C@H](C)[C@@H](O)[C@](C)(O)[C@@H](CC)OC(=O)[C@@H]2C)C[C@@]1(C)OC,20039 (clarithromycin-susceptible),MIC,3.13 µg/mL
COc1ccc(NCc2cnc3nc(N)nc(N)c3c2C)cc1OC,NJ168,MIC,≤0.13 µg/mL
CO[C@H]1/C=C/O[C@@]2(C)Oc3c(C)c(O)c4c(O)c(c5c(c4c3C2=O)NC2(CCN(CC(C)C)CC2)N=5)=NC(=O)/C(C)=C\C=C\[C@H](C)[C@H](O)[C@@H](C)[C@@H](O)[C@@H](C)[C@H](OC(C)=O)[C@@H]1C,N-979 (HIV+),MIC,0.125 µg/mL
COc1ccc(C)cc1NCc1cnc2nc(N)nc(N)c2c1C,NJ211,MIC,≤0.13 µg/mL
C[C@@H]1CN(c2c(F)c(N)c3c(=O)c(C(=O)O)cn(C4CC4)c3c2F)C[C@H](C)N1,Isolate 90-1253,MBC,1 µg/mL
Cc1ccc(C)c(NCc2cnc3nc(N)nc(N)c3c2C)c1,NJ211,MIC,≤0.13 µg/mL
CC[C@H]1OC(=O)[C@H](C)[C@@H](O[C@H]2C[C@@](C)(OC)[C@@H](O)[C@H](C)O2)[C@H](C)[C@@H](O[C@@H]2O[C@H](C)C[C@H](N(C)C)[C@H]2O)[C@](C)(OC)C[C@@H](C)C(=O)[C@H](C)[C@@H](O)[C@]1(C)O,N-289 (HIV-),MIC,0.5 µg/mL

For reference, 2 entries again:

{"SMILES": "NNC(=O)c1ccncc1", "strain": "13025", "read-out": "MIC", "value": "0.32–0.4 µg/mL"}
{"SMILES": "CO[C@H]1/C=C/O[C@@]2(C)Oc3c(C)c(O)c4c(=O)c(c5oc6cc(N7CCN(CC(C)C)CC7)cc(=O)c6nc5c4c3=C2O)NC(=O)/C(C)=C\\C=C\\[C@H](C)[C@H](O)[C@@H](C)[C@@H](O)[C@@H](C)[C@H](OC(C)=O)[C@@H]1C", "strain": "N-259 (HIV-)", "read-out": "MIC", "value": "0.05 µg/mL"}